Compound potency records, mixed from different reports. Data source: NIAID ChemDB in PubChem.

Shared fields: tests in culture; organism: Candida albicans; endpoint: MIC

Blank or dashed fields: not listed here. Neighbouring rows are from separate reports.

smiles,strain or isolate,value
CCN(CC)C(=S)[S][Sn]([CH]1CCCCC1)([CH]1CCCCC1)[CH]1CCCCC1,ATCC 18804,>250 µg/mL
CC(C)C(=O)OC1C(C)OC(=O)C(CCCCCCCNC(=O)c2ncccc2O)COC(=O)C1Cc1ccccc1,IFO1061,100 µg/mL
Cc1ccc(C(=O)/C=C/c2ccc(C(=O)O)cc2)cc1,1 clinical isolate,>32 µg/mL
O=c1c2ccccc2[se]n1-c1ccccc1,-,128 µg/mL
CC(C)(C)C(O)(CCc1ccc(Cl)cc1)Cn1cncn1,505,4 µg/mL
CCCc1nc([N+]#N)c(C(=O)N2CCCC2)[nH]1,ATCC 10231,200 µg/mL
CN(C/C=C/c1ccccc1)Cc1cccc2ccccc12,Clinical isolate delta 63,100 µg/mL
O=C(O)c1ccc(/C=C/C(=O)c2ccc([N+](=O)[O-])cc2)cc1,1 clinical isolate,>32 µg/mL
COc1cc(Cc2cnc(N)nc2N)cc(OC)c1OCCCNc1ccc(S(=O)(=O)c2ccc(N)cc2)cc1,YEM30 (WT),>64 µg/mL
N#[N+]c1nc(-c2ccccc2)[nH]c1C(=O)N1CCCC1,ATCC 10231,100 µg/mL
CCN(CC)C(=S)[S][Sn]([S]C(=S)N(CC)CC)([S]C(=S)N(CC)CC)[c]1ccccc1,Drug-resistant isolate,75 µg/mL
O=c1c2cccnc2[se]n1N(c1ccccc1)c1ccccn1,-,>500 µg/mL
C=C[C@H]([C@H](O)C(=C)C)C(C)(C)O,-,75 µg/mL
CCN1C[C@]2(CO)CC[C@H](OC)[C@]34C5CC6[C@H](OC)C5[C@](O)(C[C@@H]6OC)[C@@](O)(C13)[C@@H](OC)[C@H]24,-,4 µg/mL
CCCCn1sc2c(F)cccc2c1=O,ATCC 2091,20 µg/mL
CC(C)C(=O)OC1C(C)OC(=O)C(CCCCCCCNC(=O)c2ccc[nH]c2=O)COC(=O)C1Cc1ccccc1,IFO1061,50 µg/mL
CCOC(=O)c1cn(CC)c2c(C)cccc2c1=O,ATCC 10231,>100 µg/mL
CCC(C)n1ncn(-c2ccc(N3CCN(c4ccc(OC[C@H]5CO[C@](Cn6cncn6)(c6ccc(Cl)cc6Cl)O5)cc4)CC3)cc2)c1=O,-,4 µg/mL
Cc1ccc(C(=O)/C=C/c2ccc(C(=O)O)cc2)cc1C,1 clinical isolate,>32 µg/mL
CC(C)c1nc([N+]#N)c(C(=O)N2CCCC2)[nH]1,ATCC 10231,>200 µg/mL
O=c1[nH][se]c2ncccc12,-,128 µg/mL
CCc1nc([N+]#N)c(C(=O)N2CCCC2)[nH]1,ATCC 10231,200 µg/mL
CC(=O)N1CCN(c2ccc(OC[C@H]3CO[C@](Cn4ccnc4)(c4ccc(Cl)cc4Cl)O3)cc2)CC1,505,<2 µg/mL
CCCCNC(=O)c1ccc(C(F)(F)F)cc1SSc1cc(C(F)(F)F)ccc1C(=O)NCCCC,ATCC 2091,7.5 µg/mL
C[C@@H]1CCC2(C(=O)O)CC[C@]3(C)C(=CCC4C5(C)CCC(O)[C@@](C)(CO)C5CCC43C)C2[C@]1(C)O,IFO1061,50 µg/mL
COc1cc(O)c(C(C)=O)c(OC)c1,ICB 12,125 µg/mL
CCN1C[C@]2(COC)CC[C@H](OC)[C@]34C5CC6[C@H](OC)C5[C@](O)(C[C@@H]6OC)[C@@](O)(C13)[C@@H](OC)[C@H]24,-,4 µg/mL
CN1C(=S)NC(C)(C)C1=S,CA10,>100 µg/mL
CCOC(=O)c1cn(CC)c2ccc(C)cc2c1=O,ATCC 10231,>100 µg/mL
CC1(C)NC(=S)NC1=S,CA10,>100 µg/mL
CCCCc1nc([N+]#N)c(C(=O)N2CCCC2)[nH]1,ATCC 10231,200 µg/mL
O=c1c2cccnc2[se]n1C1CCCCC1,-,>500 µg/mL
O=C1/C(=C/c2ccccc2)CN(C(=O)/C=C/c2ccc(Cl)cc2)C/C1=C\c1ccccc1,1 clinical isolate,>32 µg/mL
COc1ccnc(C(=O)NCC=C(C)C=C(C)C=C(C)C2COC(=O)C(Cc3ccccc3)C(OC(=O)C(C)C)C(C)OC2=O)c1O,IFO1061,100 µg/mL
S=C([S][Sn]([CH]1CCCCC1)([CH]1CCCCC1)[CH]1CCCCC1)N1CCCC1,Drug-resistant isolate,75 µg/mL
Cc1ccc(C(=O)/C=C/c2ccc(C(=O)N3C/C(=C\c4ccccc4)C(=O)/C(=C/c4ccccc4)C3)cc2)cc1,1 clinical isolate,>32 µg/mL
CCC[CH2][Sn]([CH2]CCC)([S]C(=S)N1CCCC1)[S]C(=S)N1CCCC1,Drug-resistant isolate,2.5 µg/mL
O=C1N2C3C(=COC=CC3O)CC23SSC12CC1=COC=CC(O)C1N2C3=O,E83,2.5 µg/mL
Cc1ccc(/C=C/C(=O)N2C/C(=C\c3ccccc3)C(=O)/C(=C/c3ccccc3)C2)cc1,1 clinical isolate,>32 µg/mL
O=c1[nH]sc2c(F)cccc12,ATCC 2091,20 µg/mL
O=C1C(=O)N(c2ccccc2)C(=S)N1c1ccccc1,CA10,>100 µg/mL
COc1ccnc(C(=O)NCCCCCCCC2COC(=O)C(Cc3ccccc3)C(OC(=O)C(C)C)C(C)OC2=O)c1O,IFO1061,25 µg/mL
C=CCc1ccc(O)c(-c2cc(CC=C)ccc2O)c1,KCTC 1940,25 µg/mL
Cn1ccn(C)c1=[Se],CA10,>100 µg/mL
O=C1/C(=C/c2ccccc2)CN(C(=O)/C=C/c2ccc(Cl)c(Cl)c2)C/C1=C\c1ccccc1,1 clinical isolate,>32 µg/mL
COC1[C@@H](O)[C@@H](O)C(O)[C@H](O)[C@H]1O,-,75 µg/mL
CCC(C)n1ncn(-c2ccc(N3CCN(c4ccc(OC[C@H]5CO[C@](Cn6cncn6)(c6ccc(Cl)cc6Cl)O5)cc4)CC3)cc2)c1=O,Isogenic isolate 4 MDR1 (25X),0.03 µg/mL
O=c1[nH]sc2ccc(C(F)(F)F)cc12,ATCC 2091,10 µg/mL
CCN(CC)C(=S)[S][Sn]([S]C(=S)N(CC)CC)([c]1ccccc1)[c]1ccccc1,Drug-resistant isolate,75 µg/mL

A second listing of 5 rows from above:

smiles,strain or isolate,value
CCOC(=O)c1cn(CC)c2ccc(C)cc2c1=O,ATCC 10231,>100 µg/mL
CCCCc1nc([N+]#N)c(C(=O)N2CCCC2)[nH]1,ATCC 10231,200 µg/mL
O=c1[nH]sc2ccc(C(F)(F)F)cc12,ATCC 2091,10 µg/mL
CCN1C[C@]2(CO)CC[C@H](OC)[C@]34C5CC6[C@H](OC)C5[C@](O)(C[C@@H]6OC)[C@@](O)(C13)[C@@H](OC)[C@H]24,-,4 µg/mL
CCC[CH2][Sn]([CH2]CCC)([S]C(=S)N1CCCC1)[S]C(=S)N1CCCC1,Drug-resistant isolate,2.5 µg/mL